Measured values from several laboratories, pooled; numbers as filed in NIAID ChemDB.

Common to all: whole-cell or culture tests; species: HIV-1

Blank or dashed fields: not listed here.

smiles | strain or isolate | changes | cell line | read by | endpoint | value
CC(C)CN(CC(O)CC(=O)N1CSC[C@@H]1C(=O)NC(C)(C)C)S(=O)(=O)c1ccccc1 | IIIB | - | CEM | p24 | EC90 | 1 µM
Cc1cc(S(N)(=O)=O)ccc1NC(=O)COc1ccc(Cl)cc1C(=O)c1cccc(C#N)c1 | HXB2 | RT-E138K | HeLa + HELA CD4+ | β-galactosidase | fold resistance | ~1
O=C(c1ccccc1)N(CCc1ccccc1)C[C@H](O)CN(CC1CCCC1)S(=O)(=O)C1CCS(=O)(=O)C1 | IIIB | - | CEM | p24 | EC90 | 1 µM
Cn1nncc1CN1CCn2c(nc(C(=O)NCc3ccc(F)cc3)c(O)c2=O)C1(C)C | - | - | MT-4 | p24 | EC95 | <1 µM
CC(=O)c1ccc(C)cc1NC(C(N)=O)c1c(Cl)cccc1Cl | UC040-R (RT-Y181C) | RT-Y181C | CEM + CEM-SS | cytopathic effect / XTT | fold resistance | >100
Cc1ccc(C)n1-c1ccc(C(=O)O)c(O)c1 | BCF02 R5 GROUP O | - | PBMC/5.25M7 | luciferase / cell fusion | EC90 | 10.89 µM
O=C1Nc2ccc(Cl)cc2[C@@](/C=C/C2CC2)(C(F)(F)F)N1 | - | - | - | - | EC90 | 0.002 µM
CC(C)[C@H](NC(=O)OCc1ccccn1)C(=O)N[C@@H](Cc1ccccc1)[C@@H](O)C[C@H](Cc1ccccc1)NC(=O)OCc1cccnc1 | NL4-3 | PR-M46I L63P V82T | MT-4 | p24 | EC95 | 3 µM
COc1ccc(S(=O)(=O)N(CC(C)C)C[C@@H](O)CCN(CC2CCCC2)S(=O)(=O)Cc2cc(C(C)(C)C)on2)cc1 | IIIB | - | CEM | p24 | EC90 | 1 µM
Cc1cc(C#N)cc(C(=O)c2cc(Cl)ccc2OCC(=O)Nc2ccc(S(N)(=O)=O)nc2C)c1 | HXB2 | RT-K103N V108I | HeLa + HELA CD4+ | β-galactosidase | fold resistance | ~1
Cn1ccc(CN2CCn3c(nc(C(=O)NCc4ccc(F)cc4)c(O)c3=O)C2(C)C)n1 | - | - | MT-4 | p24 | EC95 | <1 µM
Cc1cc(S(N)(=O)=O)ccc1NC(=O)COc1ccc(Cl)cc1C(=O)c1cc(Cl)cc(C#N)c1 | HXB2 | RT-G190A | HeLa + HELA CD4+ | β-galactosidase | fold resistance | ~1
Cc1[nH]cnc1CS(=O)(=O)N(CC1CCCC1)C[C@@H](O)CN(CCc1ccccc1)C(=O)c1ccccc1 | IIIB | - | CEM | p24 | EC90 | 1 µM
O=C1Nc2ccc(F)c(F)c2[C@@](/C=C/C2CC2)(C(F)(F)F)N1 | - | RT-K103N V108I | - | - | EC90 | ~0.22 µM
Cc1cc(C)cc(C(=O)c2cc(Cl)ccc2OCC(=O)Nc2ccc(S(N)(=O)=O)cc2C)c1 | HXB2 | RT-L100I | HeLa + HELA CD4+ | β-galactosidase | fold resistance | ~1
COc1ccnc2[nH]cc(C(=O)C(=O)N3C4CCC3CN(C(=O)c3ccccc3)C4)c12 | PVO | - | TZM-bl | luciferase | EC90 | 9.4 µM
COc1ccc(S(=O)(=O)N(CC(C)C)CC(F)(F)C(=O)[C@@H](Cc2ccccc2)NC(=O)O[C@H]2CCOC2)cc1 | IIIB | - | CEM | p24 | EC90 | 1 µM
CCC(=O)c1ccc(F)c([C@@H]2C[C@@H]2NC(=O)Nc2ccc(C#N)cn2)c1O | LAI | NNRTI-resistant (RT V106I) | TZM-bl | β-galactosidase / luminescence | fold resistance | 1.2
CC(C)=CCOc1cc(NC(=S)c2ccsc2C)ccc1Cl | UC82-R (RT-Y181C) | RT-Y181C | CEM + CEM-SS | cytopathic effect / XTT | fold resistance | 40
O=C(c1ccccc1)N(CCc1ccccc1)C[C@H](O)CN(CC1CCCC1)S(=O)(=O)CC1COCO1 | IIIB | - | CEM | p24 | EC90 | 1 µM
Cc1cc(C#N)cc(C(=O)c2cc(Cl)ccc2OCC(=O)Nc2ccc(OCCCN3CC=CC3)cc2C)c1 | HXB2 | RT-V108I | HeLa + HELA CD4+ | β-galactosidase | fold resistance | ~1
CN(C)CC1c2nc(C(=O)NCc3ccc(F)cc3)c(O)c(=O)n2CCN1S(C)(=O)=O | - | - | MT-4 | p24 | EC95 | <50 µM
Cc1cc(S(N)(=O)=O)ccc1NC(=O)COc1ccc(Cl)cc1C(=O)c1cc(F)cc(C#N)c1 | HXB2 | RT-V106I Y181C | HeLa + HELA CD4+ | β-galactosidase | fold resistance | ~10
CC(C)CN(CC(O)CN1CCN(Cc2cccnc2)CC1C(=O)NC(C)(C)C)S(=O)(=O)c1ccccc1 | IIIB | - | CEM | p24 | EC90 | 1 µM
CN1CCn2c(nc(C(=O)NCc3cccc(Cl)c3)c(O)c2=O)C(N(C)C(=O)C(=O)N(C)C)C1 | - | - | MT-4 | p24 | EC95 | <1 µM
Cc1cc(OCCCS(N)(=O)=O)ccc1NC(=O)COc1ccc(Cl)cc1C(=O)c1cc(F)cc(C(F)(F)F)c1 | HXB2 | RT-K103N P225H | HeLa + HELA CD4+ | β-galactosidase | fold resistance | ~1
COc1ccc(S(=O)(=O)N(CC(C)C)C[C@@H](O)CCN(CCC2CCCC2)C(=O)O[C@H]2CCOC2)cc1 | IIIB | - | CEM | p24 | EC90 | 1 µM
COc1ccnc2[nH]cc(C(=O)C(=O)N3C4CC3CN(C(=O)c3ccccc3)C4)c12 | AC10 | - | TZM-bl | luciferase | EC99 | >>250 µM
O=C(NCc1ccc(F)cc1)c1nc2n(c(=O)c1O)CCN(C(=O)C(F)(F)F)C2 | - | - | MT-4 | p24 | EC95 | <50 µM
COc1ccc(S(=O)(=O)N(CC2CCCC2)C[C@@H](O)CN(CCc2ccccc2)C(=O)c2ccccc2)cc1 | IIIB | - | CEM | p24 | EC90 | 0.1 µM
C/C=C/CSc1cc(NC(=S)c2ccsc2C)ccc1Cl | NL4-3 | RT-L100I | CEM + CEM-SS | p24 | fold resistance | 28
CC(C)=CCOc1cc(NC(=S)c2ccoc2C)ccc1Cl | NL4-3 | RT-Y181C | CEM + CEM-SS | cytopathic effect / XTT | fold resistance | 13.3

The first 5 rows once more:

CC(C)CN(CC(O)CC(=O)N1CSC[C@@H]1C(=O)NC(C)(C)C)S(=O)(=O)c1ccccc1 ; strain or isolate: IIIB ; cell line: CEM ; read by: p24 ; endpoint: EC90 ; value: 1 µM
Cc1cc(S(N)(=O)=O)ccc1NC(=O)COc1ccc(Cl)cc1C(=O)c1cccc(C#N)c1 ; strain or isolate: HXB2 ; changes: RT-E138K ; cell line: HeLa + HELA CD4+ ; read by: β-galactosidase ; endpoint: fold resistance ; value: ~1
O=C(c1ccccc1)N(CCc1ccccc1)C[C@H](O)CN(CC1CCCC1)S(=O)(=O)C1CCS(=O)(=O)C1 ; strain or isolate: IIIB ; cell line: CEM ; read by: p24 ; endpoint: EC90 ; value: 1 µM
Cn1nncc1CN1CCn2c(nc(C(=O)NCc3ccc(F)cc3)c(O)c2=O)C1(C)C ; cell line: MT-4 ; read by: p24 ; endpoint: EC95 ; value: <1 µM
CC(=O)c1ccc(C)cc1NC(C(N)=O)c1c(Cl)cccc1Cl ; strain or isolate: UC040-R (RT-Y181C) ; changes: RT-Y181C ; cell line: CEM + CEM-SS ; read by: cytopathic effect / XTT ; endpoint: fold resistance ; value: >100

ECn: concentration that inhibits the pathogen or its effect by n%. Conditions beyond the fields shown may differ between rows. Fold resistance has wild type as its base.